Compound potency records, mixed from different reports. Data source: NIAID ChemDB in PubChem.

Common to all: enzyme or target tests; agent: HIV-1

Two numbers with a dash give a range or band.

SMILES,mutations,tested at,method,endpoint,target,strain or isolate,result
FC(F)(F)c1ccc2c(c1)CN(c1nn3c(C4CC4)nnc3c3ccccc13)CC2,,,RT activity / fluorescence,IC90,Reverse transcriptase,KER2008,6.62 µM
CC(C)(C)NC(=O)[C@H]1N(C(=O)[C@@H](O)[C@H](Cc2ccccc2)NC(=O)[C@H](CC(N)=O)NC(=O)COc2cccc(Cl)c2)CSC1(C)C,,,,IC50,Protease,,<0.05 µM
CC(C)(N)C#Cc1ccc(NC(=O)CSc2nnnn2-c2cc(C(C)(C)C)ccc2Cl)c(Cl)c1,,,PicoGreen / fluorescence,IC50,Reverse transcriptase,WT,<1 µM
COC(=O)[C@@H]1CCCCN1C(=O)[C@@H]1CSCN1C(=O)[C@@H](O)[C@H](Cc1ccccc1)NC(=O)[C@H](CS(C)(=O)=O)NC(=O)COc1cccc2ccccc12,,0.05 µM,,inhibition,Protease,,9.2%
O=C1c2c(O)c(=O)c(-c3cnccn3)cn2CCN1Cc1ccc(F)cc1,,,ELISA,IC50,Integrase,,0.01–0.1 µM
CC(=O)Nc1cc2c(cc1OC(F)(F)F)CCN(c1nn3c(C)nnc3c3ccccc13)C2,,,RT activity / fluorescence,IC50,Reverse transcriptase,98US_MSC5016,0.65 µM
O=C(CSc1nnnn1-c1ccc(C2CC2)cc1Cl)Nc1ccc(-c2ccc(OCCN3CCS(=O)(=O)CC3)cc2)c(F)c1Cl,RT-K103 Y181C,,PicoGreen / fluorescence,IC50,Reverse transcriptase,,<1 µM
CC(C)(C(=O)Nc1cn2ccn(Cc3cccc(Cl)c3)c(=O)c2c(O)c1=O)c1ccccc1,,,ELISA,IC50,Integrase,,<0.01 µM
c1csc(-c2nnc3c4ccccc4c(N4CCc5ccccc5C4)nn23)c1,,,RT activity / fluorescence,IC90,Reverse transcriptase,KER2008,>100 µM
CC(C)(C)NC(=O)[C@@H]1CCCN1C(=O)[C@@H](O)[C@H](Cc1ccccc1)NC(=O)[C@H](CC(N)=O)NC(=O)c1nccc2ccccc12,,,,IC50,Protease,,>0.05 µM
CC(C)(C)c1ccc(-n2nnnc2SCC(=O)Nc2ccc(C(=O)NCCO)cc2Cl)c(Cl)c1,,,PicoGreen / fluorescence,IC50,Reverse transcriptase,WT,<1 µM
CC(C)c1nnc2c3ccccc3c(N3CCc4ccc(NS(C)(=O)=O)cc4C3)nn12,,,RT activity / fluorescence,IC90,Reverse transcriptase,KER2008,2.48 µM
CC(C)(C)NC(=O)[C@@H]1CSCN1C(=O)[C@@H](O)[C@H](Cc1ccccc1)NC(=O)[C@H](CS(C)(=O)=O)NC(=O)c1cc2ccccc2o1,,0.05 µM,,inhibition,Protease,,80.5%
CC(C)(C#Cc1ccc(NC(=O)CSc2nnnn2-c2ccc(C3CC3)cc2Cl)c(Cl)c1)NC(=O)CNc1ccncc1,,,PicoGreen / fluorescence,IC50,Reverse transcriptase,WT,<1 µM
O=c1c(-c2nccs2)cn2ccn(Cc3cccc(Cl)c3)c(=O)c2c1O,,,ELISA,IC50,Integrase,,<0.01 µM
CC(=O)Nc1ccc2c(c1)CN(c1nn3c(C4CC4)nnc3c3ccccc13)CC2,,,RT activity / fluorescence,IC90,Reverse transcriptase,IIIB,0.3 µM
CC[C@@H](C)[C@H](NC(=O)[C@@H]1CCCN1C(=O)[C@@H](O)[C@H](CC1CCCCC1)NC(=O)[C@H](CC(N)=O)NC(=O)[C@H]1Cc2ccccc2CN1)C(=O)N[C@H](C(N)=O)C(C)C,,,,IC50,Protease,,<5 µM
CC(C)(C#Cc1ccc(NC(=O)CSc2nnnn2-c2cc(C(C)(C)C)cc(Br)c2Cl)c(Cl)c1)NC(=O)c1cc[n+]([O-])cc1,RT-K103 Y181C,,PicoGreen / fluorescence,IC50,Reverse transcriptase,,<1 µM
CC(C)CNC(=O)[C@@H](NC(=O)[C@H](Cc1ccccc1)NC(=O)[C@H](O)[C@H](Cc1ccccc1)NC(=O)[C@@H](NC(=O)OCc1ccccc1)C(C)C)C(C)C,,,,IC50,Protease,,>5 µM
O=C(CSc1nnnn1-c1ccc(C2CC2)cc1Cl)Nc1ccc(-c2ccc(OCCN3CCCCC3)cc2)cc1Cl,,,PicoGreen / fluorescence,IC50,Reverse transcriptase,WT,<1 µM
COc1cc2c(cc1[N+](=O)[O-])CN(c1nn3c(C4CC4)nnc3c3ccccc13)CC2,,,RT activity / fluorescence,IC90,Reverse transcriptase,98US_MSC5016,83.6 µM
CC(C)(C#Cc1ccc(NC(=O)CSc2nnnn2-c2ccc(C3CC3)cc2Cl)c(Cl)c1)NC(=O)c1ccccc1,,,PicoGreen / fluorescence,IC50,Reverse transcriptase,WT,<1 µM
O=C(NCc1ccccc1)c1cn2c(c(O)c1=O)C(=O)N(Cc1cccc(Cl)c1)CC2,,,ELISA,IC50,Integrase,,<0.01 µM
c1coc(-c2nnc3c4ccccc4c(N4CCc5ccccc5C4)nn23)c1,,,RT activity / fluorescence,IC90,Reverse transcriptase,IIIB,1.17 µM
CC(C)(C)c1ccc(-n2nnnc2SCC(=O)Nc2ccc(C(=O)NCCc3ccncc3)cc2Cl)c(Cl)c1,RT-K103 Y181C,,PicoGreen / fluorescence,IC50,Reverse transcriptase,,<1 µM

For reference, 2 entries again:

CC(C)(C)NC(=O)[C@H]1N(C(=O)[C@@H](O)[C@H](Cc2ccccc2)NC(=O)[C@H](CC(N)=O)NC(=O)COc2cccc(Cl)c2)CSC1(C)C ; endpoint: IC50 ; target: Protease ; result: <0.05 µM
O=C1c2c(O)c(=O)c(-c3cnccn3)cn2CCN1Cc1ccc(F)cc1 ; method: ELISA ; endpoint: IC50 ; target: Integrase ; result: 0.01–0.1 µM

Percent inhibition refers to the dose given; in toxicity tests it is the harm to the cells. ICn is the concentration giving n% inhibition. Rows are shuffled and stem from different studies. An empty or dashed field is not shown.